These results are taken from article PMC3111433, “Francisella tularensis 2-C-Methyl-D-Erythritol 4-Phosphate Cytidylyltransferase: Kinetic Characterization and Phosphoregulation” (2011).

Assay [1] concerns the target Francisella tularensis MEP cytidylyltransferase T141D mutant (Francisella tularensis subsp. holarctica LVS).
Assay [2] deals with Francisella tularensis MEP cytidylyltransferase T141E mutant (Francisella tularensis subsp. holarctica LVS).

“Francisella tularensis MEP cytidylyltransferase T141D mutant” showed a stoichiometry N in assay [1] of 2.

Regarding “Francisella tularensis MEP cytidylyltransferase T141E mutant”, in assay [2], the stoichiometry N turned out to be 2.
